The values below come from patent US10752656B2, “Anti-microbial supramolecular structures” (Northwestern University, priority 2016, dated 2020).

Data set [1] can be described thus: Absorption of PAs by artificial lipid bilayer (QCM-D). Conditions: for absorbed amount by the lipid bilayer: as a function of the concentration of the solutions; for energy dissipation on absorption: compared to parent PA and PA Z1.
A short description of data set [2]: Fluorescence microscopy of supported lipid bilayers treated with the PAs. Conditions: after absorption of the PA and rinsing.

Structures are written as SMILES. Entries after “also recorded” stand apart in the source; their conditions may differ. Non-standard residues stand in square brackets, D forms with d. Residues, ends and D or L forms follow the SMILES beside them. *: point of attachment. Phe(F5) = N[C@@H](Cc1c(F)c(F)c(F)c(F)c1F)C(=O)O; Palmitoyl = CCCCCCCCCCCCCCCC(=O)*

Consider `CCCCCCCCCCCCCCCC(=O)N[C@H](C(=O)N[C@H](C(=O)N[C@@H](Cc1c(F)c(F)c(F)c(F)c1F)C(=O)N[C@@H](C)C(=O)N[C@@H](C)C(=O)N[C@@H](C)C(=O)N[C@@H](CCC(=O)O)C(=O)N[C@@H](CCC(=O)O)C(=O)N[C@@H](CCC(=O)O)C(N)=O)C(C)C)C(C)C` [PA Z3] (Palmitoyl-VV[Phe(F5)]AAAEEE-NH2; C-terminus assumed), for which, in data set [1], the “absorbed amount by the lipid bilayer” value is “poor absorption” and the “energy dissipation on absorption” value was “large energy dissipation”. The “structure of the lipid bilayer after rinsing with buffer solution” value (from here on “structure of the lipid bilayer”) in data set [2] was “more or less intact; also recorded: formation of many dark pores”.

As for `CCCCCCCCCCCCCCCC(=O)N[C@H](C(=O)N[C@H](C(=O)N[C@H](C(=O)N[C@@H](C)C(=O)N[C@@H](C)C(=O)N[C@@H](C)C(=O)N[C@@H](CCC(=O)O)C(=O)N[C@@H](CCC(=O)O)C(=O)N[C@@H](CCC(=O)O)C(N)=O)C(C)C)C(C)C)C(C)C` [parent PA, reference compound] (Palmitoyl-VVVAAAEEE-NH2; C-terminus assumed), the “absorbed amount by the lipid bilayer” value in data set [1] is recorded as “efficiently absorbed; also recorded: efficient uptake”. Also, the “structure of the lipid bilayer” value in data set [2] is given as “more or less intact”.

For the compound `CCCCCCCCCCCCCCCC(=O)N[C@@H](Cc1c(F)c(F)c(F)c(F)c1F)C(=O)N[C@H](C(=O)N[C@H](C(=O)N[C@@H](C)C(=O)N[C@@H](C)C(=O)N[C@@H](C)C(=O)N[C@@H](CCC(=O)O)C(=O)N[C@@H](CCC(=O)O)C(=O)N[C@@H](CCC(=O)O)C(N)=O)C(C)C)C(C)C` [PA Z1] (Palmitoyl-[Phe(F5)]VVAAAEEE-NH2; C-terminus assumed), the “absorbed amount by the lipid bilayer” value in data set [1] is on record as “efficiently absorbed”.

On to `CCCCCCCCCCCCCCCC(=O)N[C@H](C(=O)N[C@@H](Cc1c(F)c(F)c(F)c(F)c1F)C(=O)N[C@H](C(=O)N[C@@H](C)C(=O)N[C@@H](C)C(=O)N[C@@H](C)C(=O)N[C@@H](CCC(=O)O)C(=O)N[C@@H](CCC(=O)O)C(=O)N[C@@H](CCC(=O)O)C(N)=O)C(C)C)C(C)C` [PA Z2] (Palmitoyl-V[Phe(F5)]VAAAEEE-NH2; C-terminus assumed), for which, in data set [1], the “absorbed amount by the lipid bilayer” value was “efficiently absorbed; also recorded: efficient uptake” and the “energy dissipation on absorption” value is on record as “large energy dissipation”. Besides, the “structure of the lipid bilayer” value in data set [2] was “formation of many dark pores”.
